One may read the MIC as the lowest concentration that inhibits growth of the organism. Low values mean inhibition by little substance, high ones a need for much substance.

The results in this text go back to ChEMBL document CHEMBL3297661, “1-Substituted-5-[(3,5-dinitrobenzyl)sulfanyl]-1H-tetrazoles and their isosteric analogs: A new class of selective antitubercular agents active against drug-susceptible and multidrug-resistant mycobacteria” (Eur J Med Chem, 2014).

Converted amounts (≈) assume the structure as drawn.

Holding throughout (assay type): functional
For assay [1], the system named is Mycobacterium tuberculosis. Description: Antimycobacterial activity against multidrug-resistant Mycobacterium tuberculosis 9449/2007 after 7 days by micromethod.
The subject of assay [2] is Mycobacterium tuberculosis. Description: Antimycobacterial activity against multidrug-resistant Mycobacterium tuberculosis Praha 1 after 7 days by micromethod.
For assay [3], the system named is Mycobacterium tuberculosis. Description: Antimycobacterial activity against multidrug-resistant Mycobacterium tuberculosis 234/2005 after 7 days by micromethod.
Assay [4] deals with Mycobacterium tuberculosis. Description: Antimycobacterial activity against multidrug-resistant Mycobacterium tuberculosis Praha 131 after 7 days by micromethod.
Assay [5] deals with Mycobacterium tuberculosis. Description: Antimycobacterial activity against multidrug-resistant Mycobacterium tuberculosis 8666/2010 after 7 days by micromethod.
Assay [6] has as its system Mycobacterium tuberculosis. In words: Antimycobacterial activity against multidrug-resistant Mycobacterium tuberculosis Praha 4 after 7 days by micromethod.

`O=[N+]([O-])c1ccc(-n2nnnc2SCc2cc([N+](=O)[O-])cc([N+](=O)[O-])c2)cc1`: the MIC in assay [1], in assay [2], in assay [3], in assay [4], in assay [5] and in assay [6] was 0.5 µM (≈ 0.202 µg/mL) throughout.
On to `O=[N+]([O-])c1ccc(-n2nnnc2OCc2cc([N+](=O)[O-])cc([N+](=O)[O-])c2)cc1`, for which the MIC was 2 µM (≈ 0.775 µg/mL) in assay [1]; 2 µM (≈ 0.775 µg/mL) in assay [2]; 1 µM (≈ 0.387 µg/mL) in assay [3]; 2 µM (≈ 0.775 µg/mL) in assay [4]; 0.5 µM (≈ 0.194 µg/mL) in assay [5]; 1 µM (≈ 0.387 µg/mL) in assay [6].
